Anti-infective test results gathered from many reports (values: NIAID ChemDB through PubChem).

Shared fields: tests in culture; organism: Mycobacterium tuberculosis

MIC bound comes from a single tested concentration. Percent inhibition refers to the dose given; in toxicity tests it is the harm to the cells. ECn: concentration that inhibits the pathogen or its effect by n%. Blank or dashed fields: not listed here. MIC50, MIC90 and the like: level of inhibition, or share of isolates inhibited. Neighbouring rows are from separate reports.

structure | tested at | method | mutations | conditions | cells | strain | endpoint | value
NNC(=O)c1ccncc1 |  | resazurin |  |  |  | H37Rv | MIC | 0.19 µM
N/C(=N\N=C\c1cc(Cl)ccc1O)SCc1ccc(F)cc1 |  | broth dilution |  | 21 d |  | H37Rv | MIC | 16 µM
COc1cc(/C=C2/N=C(C)N(n3c(-c4ccccc4)nc4ccccc4c3=O)C2=O)cc(OC)c1OC | 12.5 µg/mL | BACTEC |  |  |  | H37Rv | inhibition | 24%
C/C(=N\Nc1nc(-c2cccs2)cs1)c1cccnc1 |  | resazurin |  |  |  | H37Rv (ATCC 27294) | EC90 | >100 µg/mL
CO[C@H]1/C=C/O[C@@]2(C)Oc3c(C)c(O)c4c(O)c(c5c(c4c3C2=O)NC2(CCN(CC(C)C)CC2)N=5)=NC(=O)/C(C)=C\C=C\[C@H](C)[C@H](O)[C@@H](C)[C@@H](O)[C@@H](C)[C@H](OC(C)=O)[C@@H]1C |  |  |  |  |  | 1 isolates (Gln513Pro) | MIC | >5 µg/mL
Cc1ccc2nc(SCc3c(F)cccc3Cl)[nH]c2c1 |  |  |  |  |  | MY 332/88 | MIC | 32 µM
C[C@]1(COc2ccc(-n3cc(-c4ccc(F)cc4)nn3)cc2)Cn2cc([N+](=O)[O-])nc2O1 |  | broth dilution / resazurin |  |  |  | ss18b non-replicating phase | MIC | 4.59 µM
CC(=O)O[C@H]1C[C@H]([C@H](C)CC/C=C(\C)C(=O)O)[C@@]2(C)CC=C3C(=CC[C@H]4C(C)(C)[C@@H](OC(=O)C(C)C)CC[C@]34C)[C@]12C |  | GFP |  |  |  | H37Ra | MIC90 | 0.781 µg/mL
Cc1ccc2nc(SCc3cccc(Br)c3)[nH]c2c1 |  |  |  |  |  | MY 332/88 | MIC | 62 µM
CC(=O)Nc1ccc(OCC(=O)NN2C(=O)C(C)SC2c2ccc(O)cc2)cc1 | 12.5 µg/mL |  |  |  |  | H37Rv | inhibition | 0%
NNC(=O)Cc1ccnc2ccccc12 |  | BACTEC |  |  |  | H37Ra | MIC | >6.25 µg/mL
N/C(=N\N=C\c1cc(Br)ccc1O)SCc1ccc(C(F)(F)F)cc1 |  | broth dilution |  | 21 d |  | H37Rv | MIC | 32 µM
O=[N+]([O-])c1cccc(/C=N/Nc2ccc3ccccc3n2)c1O |  |  |  |  |  | H37Ra | MIC | 3.125 µM
COc1ccc(C2SCC(=O)N2NC(=O)COc2ccc(NC(C)=O)cc2)cc1 | 12.5 µg/mL |  |  |  |  | H37Rv | inhibition | 0%
CC(=O)O[C@H]1CC[C@]2(C)C3=CC[C@]4(C)[C@@H]([C@H](C)CC/C=C(\C)C(=O)O)C[C@H](OC(C)=O)[C@@]4(C)C3=CC[C@H]2C1(C)C |  | GFP |  |  |  | H37Ra | MIC90 | 0.391 µg/mL
CCCCNC(=O)c1cc(C2C3CC4CC(C3)CC2C4)c2ccccc2n1 | 6.25 µg/mL | BACTEC |  |  |  | H37Ra | inhibition | 22%
C[C@]1(COc2cccc(-n3cc(COc4ccc(OC(F)(F)F)cc4)nn3)c2)Cn2cc([N+](=O)[O-])nc2O1 |  | broth dilution / resazurin |  |  |  | ss18b non-replicating phase | MIC | 7.52 µM
CCCCCNC(=O)c1cc(C2C3CC4CC(C3)CC2C4)c2ccccc2n1 |  | BACTEC |  |  |  | H37Ra | MIC | >6.25 µg/mL
CC(=O)c1ccc(O)c(-c2csc(N/N=C(\C)c3ccncc3)n2)c1 |  | resazurin |  |  |  | H37Rv (ATCC 27294) | EC50 | >100 µg/mL
c1ccc2c(c1)nnn1c3cnccc3nc21 |  |  |  |  | VERO | H37Rv | MIC | 1.56 µg/mL
Cc1ccc2nc(SCc3cc(C(F)(F)F)cc(C(F)(F)F)c3)[nH]c2c1 |  |  |  |  |  | MY 332/88 | MIC | 62 µM
C=CCOP1(c2ccccc2)(c2ccccc2)NC(c2ccccc2)(c2ccccc2)C(C(=O)OC)=C1C(=O)OC |  | BACTEC |  |  |  | H37Rv | MIC bound | >12.5 µg/mL
CCCC(=O)O[C@H]1C[C@H]([C@H](C)CC/C=C(\C)C(=O)O)[C@@]2(C)CC=C3C(=CC[C@H]4C(C)(C)[C@@H](OC(C)=O)CC[C@]34C)[C@]12C |  | GFP |  |  |  | H37Ra | MIC90 | 1.56 µg/mL
Cc1cc(OCc2cc(-c3ccc(OC[C@@]4(C)Cn5cc([N+](=O)[O-])nc5O4)cc3)no2)ccc1C(C)C |  | broth dilution / resazurin |  |  |  | H37Rv | MIC | 0.99 µM
COC(=O)c1cc2c(nn1)C(=O)Nc1ccccc1C2(C)C | 12.5 µg/mL | BACTEC |  |  |  | H37Rv | inhibition | 0%
CCC(=O)O[C@H]1CC[C@]2(C)C3=CC[C@]4(C)[C@@H]([C@H](C)CC/C=C(\C)C(=O)O)C[C@H](OC(C)=O)[C@@]4(C)C3=CC[C@H]2C1(C)C |  | GFP |  |  |  | H37Ra | MIC90 | 0.391 µg/mL
COc1ccc(OC)c(NCc2cnc3nc(N)nc(N)c3c2C)c1 |  |  |  |  |  | H37Ra | MIC | 16 µg/mL
C[C@]1(COc2ccc(-c3cc(-c4ccccc4F)on3)cc2)Cn2cc([N+](=O)[O-])nc2O1 |  | broth dilution / resazurin |  |  |  | H37Rv | MIC | 0.57 µM
CCCCCN(CCCCC)CCCNc1ccc(C)c2sc3ccccc3c(=O)c12 |  | BACTEC |  |  | VERO | H37Rv | MIC | 1.6 µg/mL
CC(=O)Nc1ccc(OCC(=O)NN2C(=O)C(C)SC2c2ccccc2Cl)cc1 |  |  |  |  |  | H37Rv | EC50 | >12.5 µg/mL
C(=C\c1cncnc1-c1ccc(-c2cccs2)s1)/c1ccc(-c2ccccc2)cc1 |  | broth dilution |  |  |  | H37Rv | MIC | 1.5 µg/mL
COC(=O)C1=C2Nc3ccccc3[C@@]23CCN2C[C@]4(C[C@@H]5C[C@]67CCO[C@H]6CCN6CC[C@@]8(c9cccc(OC)c9N(C4)[C@@]58O)[C@@H]67)[C@@H]4OCC[C@]4(C1)[C@H]23 | 12.5 µg/mL | BACTEC |  |  |  | H37Rv | inhibition | -18%
Cc1ccc2nc(SCc3cccc(C#N)c3)[nH]c2c1 |  |  |  |  |  | MY 332/88 | MIC | >62.5 µM
C[Si]1(C)[Si](C)(C)[Si](C)(C)[Si](C)(C)[Si](C)(C)[Si]1(C)C |  | BACTEC |  |  |  | H37Rv | MIC bound | ≤128 µg/mL
Cc1ccc2nc(SCc3ccc(C#N)cc3)[nH]c2c1 |  |  |  |  |  | MY 332/88 | MIC | 32 µM
Cc1ccccc1OCc1cc(-c2ccc(OC[C@@]3(C)Cn4cc([N+](=O)[O-])nc4O3)cc2)no1 |  | broth dilution / resazurin |  |  |  | H37Rv | MIC | 4.33 µM
CC(=O)Nc1ccc(OCC(=O)N/N=C/c2ccccc2[N+](=O)[O-])cc1 |  |  |  |  |  | H37Rv | EC50 | >12.5 µg/mL
COC(=O)NC1C(=O)O[C@H]([C@H]2OC2(C)C)C1(C)C |  | BACTEC |  |  |  | H37Rv | MIC bound | >12.5 µg/mL
NNC(=O)c1cc(C2CCCC2)c2cccc(C3CCCC3)c2n1 |  | BACTEC |  |  |  | H37Ra | MIC | 6.25 µg/mL
C[C@]1(COc2ccc(-c3cc(COc4cccc(F)c4)on3)cc2)Cn2cc([N+](=O)[O-])nc2O1 |  | broth dilution / resazurin |  |  |  | ss18b non-replicating phase | MIC | 34.32 µM
Cc1ccc2nc(SCc3cccc(C(N)=S)c3)[nH]c2c1 |  |  |  |  |  | MY 332/88 | MIC | 32 µM
N/C(=N\N=C\c1cc(Cl)ccc1O)SCc1ccc(Cl)cc1 |  | broth dilution |  | 21 d |  | H37Rv | MIC | 16 µM
Cc1nc2c(n1C)C(=O)c1nc(CBr)[nH]c(=O)c1C2=O |  | BACTEC |  |  |  | H37Rv | MIC bound | >12.5 µg/mL
NNC(=O)c1cc(C2CCCC2)c2ccccc2n1 |  | BACTEC |  |  |  | H37Ra | MIC | >6.25 µg/mL
CCc1cc(C(N)=S)ccn1 |  |  |  |  |  | CIPT 14 001 0060 (Canetti) | MIC | 0.5 µg/mL
N/C(=N\N=C\c1cc(Cl)ccc1O)SCc1cccc(Cl)c1 |  | broth dilution |  | 14 d |  | H37Rv | MIC | 32 µM
CC(C)[C@@](O)(C(=O)OCC1CCN2CC[C@@H](O)C12)[C@@H](C)O | 12.5 µg/mL | BACTEC |  |  |  | H37Rv | inhibition | 14%
COCCOc1ccc(OCCOC)c(NCc2cnc3nc(N)nc(N)c3c2C)c1 |  |  |  |  |  | H37Ra | MIC | 32 µg/mL
Nc1nc(N)c(N=Nc2ccc(S(=O)(=O)Nc3ccccn3)cc2)c(=O)[nH]1 |  | BACTEC |  |  |  | H37Rv | MIC bound | >12.5 µg/mL
Cc1ccc2nc(SCc3cccc(F)c3)[nH]c2c1 |  |  |  |  |  | MY 332/88 | MIC | 32 µM
O=C1CSC(c2ccc(F)cc2)N1NC1=Nc2ccccc2Sc2ccccc21 |  | broth dilution |  |  |  | H37Rv | MIC | 250 µg/mL
COc1ccc(CSc2nc3ccc(C)cc3[nH]2)cc1 |  |  |  |  |  | MY 332/88 | MIC | >32 µM
CCn1cc(C(=O)O)c(=O)c2cc(F)c(N3CCNC(C)C3)c(F)c21 |  |  |  |  |  | H37Ra | MIC | 3.125 µM
C=C1CCC[C@@]2(C)CC[C@@H](/C(C)=C/C=C/C(C)(C)O)C[C@H]12 |  | BACTEC |  |  |  | H37Rv | MIC | ≥12.5 µg/mL
C[C@]1(COc2ccc(-n3cc(COc4cccc(Cl)c4)nn3)cc2)Cn2cc([N+](=O)[O-])nc2O1 |  | broth dilution / resazurin |  |  |  | ss18b non-replicating phase | MIC | 8.3 µM
COc1ccc(NC(=O)c2cc(C3C4CC5CC(C4)CC3C5)c3ccccc3n2)cc1Cl |  | BACTEC |  |  |  | H37Ra | MIC | >6.25 µg/mL
CC(=O)Nc1ccc(OCC(=O)N/N=C/c2ccc(N(C)C)cc2)cc1 |  |  |  |  |  | H37Rv | EC50 | >12.5 µg/mL
Nc1nc(-c2ccccc2)c(N=Nc2cc(Cl)ccc2Cl)s1 | 12.5 µg/mL | BACTEC |  |  |  | H37Rv | inhibition | -26%
C[C@]1(COc2cccc(-n3cc(COc4ccc(F)cc4)nn3)c2)Cn2cc([N+](=O)[O-])nc2O1 |  | broth dilution / resazurin |  |  |  | H37Rv | MIC | 1.07 µM
O=C(Nc1cnc2ccccc2c1)c1cc(C2C3CC4CC(C3)CC2C4)c2ccccc2n1 |  | BACTEC |  |  |  | H37Ra | MIC | >6.25 µg/mL
CCCCOc1ccc(OCC)cc1NCc1cnc2nc(N)nc(N)c2c1C |  |  |  |  |  | H37Ra | MIC | >64 µg/mL
Cc1ccc(NC(=O)CCC(=O)O)cc1[N+](=O)[O-] |  | BACTEC |  |  |  | H37Rv | MIC bound | >12.5 µg/mL
N/C(=N\N=C\c1cc(Cl)cc(Cl)c1O)SCc1ccc(Br)cc1 |  | broth dilution |  | 14 d |  | H37Rv | MIC | 16 µM
CCCCOc1ccc(OCCC)cc1NCc1cnc2nc(N)nc(N)c2c1C |  |  |  |  |  | H37Ra | MIC | >64 µg/mL
O=C1[C@H](Cl)[C@@H](c2cccc(Cl)c2Cl)N1NC1=Nc2ccccc2Sc2ccccc21 |  | broth dilution |  |  |  | H37Rv | MIC | 500 µg/mL
CCC(C)C(=O)OC1CCC=C2C=CC(C)C(CCC3CC(O)CC(=O)O3)C21 |  | BACTEC |  |  |  | H37Rv | MIC bound | >12.5 µg/mL
O=C1CSC(c2cccc(Cl)c2Cl)N1NC1=Nc2ccccc2Sc2ccccc21 |  | broth dilution |  |  |  | H37Rv | MIC | 500 µg/mL
N[C@@H]1CONC1=O |  |  |  |  |  |  | MIC | 30 µg/mL
CCCCOc1ccc(OCC)c(NCc2cnc3nc(N)nc(N)c3c2C)c1 |  |  |  |  |  | H37Ra | MIC | >64 µg/mL
FC(F)(F)c1[nH]nc(-c2cc3ccccc3o2)c1N=NN1CCOCC1 |  | BACTEC |  |  | VERO | H37Rv | MIC | 6.25 µg/mL
N/C(=N\N=C\c1ccccc1)SCc1ccc(C(F)(F)F)cc1 |  | broth dilution |  | 14 d |  | H37Rv | MIC | 32 µM
CCCCOc1ccc(OC)cc1NCc1cnc2nc(N)nc(N)c2c1C |  |  |  |  |  | H37Ra | MIC | 32 µg/mL
c1ccc(N=c2ncc3nc(-c4ccccc4)c(-c4ccccc4)n(-c4ccccc4)c-3n2)cc1 |  | BACTEC |  |  |  | H37Rv | MIC bound | >12.5 µg/mL
C/C=C/C(=O)O[C@H]1CC[C@]2(C)C3=CC[C@]4(C)[C@@H]([C@H](C)CC/C=C(\C)C(=O)O)C[C@H](OC(C)=O)[C@@]4(C)C3=CC[C@H]2C1(C)C |  | GFP |  |  |  | H37Ra | MIC90 | >50 µg/mL
CCCCCCCNC(=O)c1cc(C2C3CC4CC(C3)CC2C4)c2ccccc2n1 | 6.25 µg/mL | BACTEC |  |  |  | H37Ra | inhibition | 1%
CCN(CC)CC[n+]1ccc2c(C)c3[nH]c4ccccc4c3c(C)c2c1 |  | resazurin |  |  |  | H37Rv | MIC | 0.78 µg/mL
S=C(S)N1CCCC1 |  |  |  |  |  | H37Ra | MIC | 0.781 µM
O=C1CCCCCCCCCCCC(=O)OCO1 |  | BACTEC |  |  |  | H37Rv | MIC | ≥12.5 µg/mL
Brc1cncnc1-c1ccc(-c2ccccc2)s1 |  | broth dilution | Rifampicin- and isoniazid-resistant |  |  | MDR | MIC | 1.5 µg/mL
O=C1C=CC2(CCC23C=CC(=O)O3)O1 |  | BACTEC |  |  |  | H37Rv | MIC bound | >12.8 µg/mL
C[N+](C)(CCCCCC[N+](C)(C)CCCN1C(=O)c2cccc3cccc(c23)C1=O)CCCN1C(=O)c2cccc3cccc(c23)C1=O |  |  |  |  |  | H37Ra | MIC | 12.5 µM

6 of the rows above, restated:

structure | tested at | method | mutations | conditions | cells | strain | endpoint | value
N[C@@H]1CONC1=O |  |  |  |  |  |  | MIC | 30 µg/mL
c1ccc2c(c1)nnn1c3cnccc3nc21 |  |  |  |  | VERO | H37Rv | MIC | 1.56 µg/mL
O=C1C=CC2(CCC23C=CC(=O)O3)O1 |  | BACTEC |  |  |  | H37Rv | MIC bound | >12.8 µg/mL
Nc1nc(-c2ccccc2)c(N=Nc2cc(Cl)ccc2Cl)s1 | 12.5 µg/mL | BACTEC |  |  |  | H37Rv | inhibition | -26%
COC(=O)NC1C(=O)O[C@H]([C@H]2OC2(C)C)C1(C)C |  | BACTEC |  |  |  | H37Rv | MIC bound | >12.5 µg/mL
N/C(=N\N=C\c1ccccc1)SCc1ccc(C(F)(F)F)cc1 |  | broth dilution |  | 14 d |  | H37Rv | MIC | 32 µM